Measured values: patent US20220306729A1 (published 2022)

Tests used:
[1] = target: T1, DENV1 EDIII, polyhistidine-AviTag, made in HEK-293-6E cells (Dengue virus 1 (NC_001477)); test: ELISA on EDIII (Table A)
T1 construct: also called EDIII of DENV1
T1 chain: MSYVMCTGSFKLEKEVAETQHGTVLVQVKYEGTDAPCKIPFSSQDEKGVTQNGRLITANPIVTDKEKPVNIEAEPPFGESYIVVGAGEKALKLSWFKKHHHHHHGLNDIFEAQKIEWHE

[2] = target: T2, WNV EDIII, polyhistidine-AviTag (West Nile virus); test: ELISA on EDIII (Table A)
T2 chain: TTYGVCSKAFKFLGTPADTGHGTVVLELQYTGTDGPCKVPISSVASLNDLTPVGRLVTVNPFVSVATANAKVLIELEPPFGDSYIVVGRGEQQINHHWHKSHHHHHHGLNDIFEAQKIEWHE

Binder	binding result [1]	binding result [2]
Z002 (MEX18_27) (antibody, V domains shown) VH: EVQLLESGGGLVQPGGSLRLSCATSGFTFSTYAMSWVRQAPGKGLEWVSSFSGVDDSTYYAESVKGRFTISRDNSKNTVYLQMTRLRAEDTAVYYCAKDRGPRGVGELFDSWGQGTLVTVSS VL: DIQMTQSPSTLSASVGDRVTMTCRASQSINRWLAWYQQKPGKAPKLLIYTTSTLKSGVPSRFSGSGSGTEFTLTISSLQPDDFATYYCQHFHSVPWTFGQGTKVEIK	binds	no binding
Z003 (MEX18_58) (antibody, V domains shown) VH: EVQLLESGGGLVQPGGSLRLSCATSGFTFTTFAMSWVRQAPGKGLEWVSSISGADDSTYYAASVKGRFTISRDNSRSTLFLQMNSLRAEDTAVYYCAKDRGPRGVGELFDSWGQGTLVTVSS VL: DIQMTQSPSTLSASVGDRVTITCRASQSISKWLAWYQQKPGKAPRLLIYTTSTLKSGVPSRFSGSGSGTEFTLTISSLQPDDFATYYCQHFFSVPWTFGQGTKVEIK	binds	no binding
Z005 (MEX18_13) (antibody, V domains shown) VH: EVQLLESGGGLVQPGGSLRLSCAASGFTFSSYAMSWVRQAPGKGLEWVSSFSGIDDSTWYADSVKGRFTISRDNSKSTLYLQMNSLRAEDTAVYYCAKDRLVRGFAEVLDYWGRGTLVTVSS VL: DIQMTQSPSSLSASVGDRVTITCRASQDISKYLAWYQQRPGKVPNLLIYTASTLQSGVPSRFSGSGSGTHFTLTISSLQPEDVATYYCQKYNSVPWTFGQGTKVEIK	binds	no binding
Z007 (MEX105_50) (antibody, V domains shown) VH: EVQLLESGGGLVRPGGSLRLSCTASGFTFRRYAMAWVRQAPGKGLEWVSLIYDGDDSTYYAKSVKGRFAISRDNSKNTLSLQMNSLRAEDTAVYYCVKDRDNGWSSIVDWGQGTLVTVSS VL: DIQMTQSPSTLSASVGDRVTITCRASHSISGWLAWYQQKPGKAPKLLIYQASILESGVPSRFSGSGSGTEFTLTIGSLQPEDFATYFCQQYSTFWTFGQGTKVEIK	binds	no binding
Z008 (MEX105_60) (antibody, V domains shown) VH: EVQLLESGGGLVRPGGSLRLSCTASGFTFRRFAMAWVRQAPGKGLEWVSLIWNGDDSTYYAESVRGRFTISRDNSHNTLSLQMRSLRAEDTAIYYCVKDRDNGWSSIVDWGQGTLVTVSS VL: DIQMTQSPSTLSASVGDRVTITCRASQTIGNWLAWYQQKPGKAPKLLIYQASVLESGVPSRFSGSGSGTEFTLTISSLQPEDFATYFCQQYSTFWTFGQGTKVEIK	binds	no binding
Z009 (MEX105_64) (antibody, V domains shown) VH: EVQLLESGGGLVRPGGSLRLSCTASGFTFRRYAMAWVRQAPGKGLEWVSLIYNGDDSTYYAESVKGRFTVSRDNSQNTLSLQMNSLRAEDTAIYYCVRDRDNGWSSIVDWGQGTLVTVSS VL: DIQMTQSPSTLSASVGDRVTITCRASRTIGSWLAWYQQKPGKAPKLLIYQASILEGGVPSRFSGSVSGTEFTLTIRSLQPEDFATYFCQQYSTFWTFGQGTKVEIK	binds	no binding
Z011 (MEX105_15) (antibody, V domains shown) VH: EVQLLESGGGLVQPGGSLRLSCAASGFTFRTYAMSWVRQPPGKGLEWVSSISAREDSTYFAASVRGRFTISRDNSKNTLYLQMNNLRAEDTALYYCAKDRLQLGVGELYESWGQGTLVTVSS VL: DIQMTQSPSTLSASVGDRVTITCRASQNINSWLAWYQQKPGKAPKLLIYMASSLQSGVPSRFSGSGSGTEFTLTVSSLQPDDFATYYCQHYHSYPWTFGQGTKVEIK	binds	no binding
Z013 (MEX18_84) (antibody, V domains shown) VH: EVQLLESGGGLVQPGGSLRLSCAASGFTFTSYAMNWVRQAPGKGLEWVSGIGGRGAIAGDGSIYYADSVKGRFTISRDNSKNIVYLQMNGLRVEDTAVYYCAKDRVAFDGFHVWGQGTLVTVSS VL: DIQMTQSPPTLSASVGDRVTITCRASQSISSWLAWYQQKPGKAPKLLIYKASSLESGVPSRFSGSGSGTEFSLTISSLQPEDFATYYCQQYNSYPWTFGQGTKVEIK	binds	no binding
Z034 (BRA112_09) (antibody, V domains shown) VH: EVQLLESGGGLAQPGGSLRLSCETSGFTFRSYGMGWVRQAPGKGLEWVSSIYISGDSTYYAASVKGRFTISRDNSKSTLYLQMDRLTAEDTAVYYCVRDRIQGGFGELYRYWGQGTLVTVSS VL: DIQMTQSPSTLSASVGDRVTMTCRASQSVNKWLAWYQQKPGKAPKLLIYETSILESGVSSRFSGSGSGTEFTLTISSLQPDDFATYYCQHYHGYPWTFGQGTKVEIK	binds	no binding
Z016 (MEX84_p2-55) (antibody, V domains shown) VH: QVQLVQSGAEVKKPGASVKLSCKASGYTFTSYYVHWVRQAPGQGLEWMGIINPGNNFVSFAQNFYDRATMTRDTSTNTVYMELTNLQSEDTAVYYCARTLVAPSAQSMYYFDFWGQGTLVTVSS VL: EIVLTQSPGTLSLSPGERGTLSCRASQYITTGHFAWYQQKPGRAPRLLIYGASVRATGVPDRFSGSGAETDFTLTISRLDPEDVGVYYCQQYGSSPVTFGPGTKVDIK	no binding	binds
Z017 (MEX84_p2-58) (antibody, V domains shown) VH: QVQLVQSGAGMRKPGASVKVSCKASGYSFNDYYIHWVRQAPGQGLEWMGWINPKSGFTNYAQRFQGRVTMTGDTSNSVAYMELTRLTSDDTAVYYCARGGRINAPLGFDPWGQGTLVTVSS VL: EIVLTQSPDTLSLSPGETATLSCRASQSIGSISLGWYQQKFGQAPRLLIYGASTRATGTPDRFSGSGSETDFTLTISRLEPEDSAVYYCQQYVSSPLRFGGGTKVEIK	no binding	binds
Z050 (BRA138_28) (antibody, V domains shown) VH: QVQLVQSGAEVKKPGSSVKVSCKAPGGTFSRYSIAWVRQAPGQGLEWMGGINPTFTTPNYAQKFQGRVTITADESTNTAYLDLSSLRSEDTAVYYCARFRYYYESGGYSDASPYYLDYWGQGTLVTVSS VL: EIVLTQSPATLSLSPGERVTLSCRASQSVSSYLAWYQQKPGQAPRLLIYDASNRATGIPARFTGSGSGTDFTLTISSLEPEDFAVYYCQQRSNWPLTFGGGTKVEIK	no binding	binds
Z052 (BRA138_62) (antibody, V domains shown) VH: QVQLQESGPGLVKPSQTLSLTCTVSGGSITGGVYYWNWIRHHPGKGLEWIGYMFYSGDTDYNPSLRSRVTISGDTSKNKFSLNLNSVTAADTAVYYCARAGFDYGSPVSAFDIWGQGTLVTVSS VL: EIVLTQSPATLSLSPGERATLSCRASQSVSSTYLVWYQQKPGQAPRLLIYGASSRATGIPDRFSGSGSGTDFTLTISRLEPEDFAVYFCQQYAHSPRGYTFGQGTKLEIK	no binding	binds
Z055 (MEX84_p4-61) (antibody, V domains shown) VH: EVQLVQSGAEVKKPGASVKVSCKASGYTFSGYYIHWLRQAPGQGLEWMGWINSNSGGADSGPRFHGRVTMTRDTSINTAYLELTNLRSDDTAVYYCARRTYYDTRFPYWYFDLWGRGTLVTVSS VL: AIRMTQSPSSLSASVGDRVTITCRASQDIGSYLNWYQQKPGKAPNVLISAASTLQSGVPSRISGIGSGTDFTLTISSLQPEDFATYYCQQSLSAPYTFGQGTKLEIK	no binding	binds
Z056 (MEX84_p2-94) (antibody, V domains shown) VH: EVQLVQSGAEVKKPGASVKVSCKASGNTFMGYYFHWVRQAPGQGLEWMGWINPNSGHANIAQTFQGRVTMTRDPSITTAYMELSRLRSDDTAVFYCARGGMLGQLWALDNWGQGTLVTVSS VL: DIQMTQSPSTLSASVGDRVTITCRASQSISHWLAWYQQRPGEAPKLLIYQASTLESGVPSRFSGSGSGTEFTLSISSLQPDDFATYYCQQYQSSPYTFGQGTKLEIK	no binding	binds
Z057 (MEX84_p4-54) (antibody, V domains shown) VH: EVQLVQSGAEVKRPGASVKVSCKASGYTFADYYIHWVRQAPGLGLEWMGWINPKTGFSHYEQTFQGRVTMARDTSIPAAYMELSSLKSDDTAIYYCARGGRINVAEALRYWGQGSLVTVSS VL: DIQMTQSPSTLSTFVGDRVTITCRASQTIGDWLAWYQQKPGKAPKLLISKATRLESGVPSRFSGSGSETEFSLTINSLQPDDVAAYYCQQYMSYPWTFGQGTKLEIK	no binding	binds
Z059 (MEX84_p4-34) (antibody, V domains shown) VH: EVQLVQSGAEVKTPGSSVKVSCKTSGGTFSNFAITWVRQAPGQGLEWMGGIIPLFGITNYTQKFQGRVTITTDESKTTAYMDLSGLRSEDTAVYFCARGRDSSGRLLDHWGQGTLVTVSS VL: EIVMTQSPATLSVSPGERATLSCRASQTVNRNLAWYQQKPGQAPRLLIYAASARATGVPARFSGSGSGTEFTLTISSLQSEDFVVYYCQQYNNWPPLTFGGGTKLEIK	no binding	binds
Z061 (BRA112_36) (antibody, V domains shown) VH: EVQLVESGGGVVQPGRSLRLSCAASGFTFSISTIHWVRQAPGKGLEYVVVISHDGNTKYYADSVKGRFIISRDNSKNTVFLQMNSLRPVDTAVYYCARGEVGYFDLWGRGTLVTVSS VL: EIVLTQSPATLSLSPGERATLSCRASQSVSSFLAWYQQKPGQPPRLLIYDASTRATGIPARFSGSGSGTDFTLTISSLEPEDFAVYYCQQRSNWPPITFGQGTRLEIK	no binding	no binding
Z036 (BRA112_91) (antibody, V domains shown) VH: EVQLLESGGDLVQPGGSLRLSCAASGFTFSTYGMAWVRQAPGKGLEWLSSISSVDDSKYYAASVKGRFTISRDNSRNTLYLHMNSLRVDDTAVYYCAKDRIPHGLGELYANWGQGTLVTVSS VL: DIQMTQSPSTLSASVGDRVTITCRASQSISGWLAWYQQKPGKAPRLLMHKASNLYSGVPSRFSGSGSGTEFTLTISSLQPDDFATYYCQHYHSYPYTFGQGTKVEIK	–	no binding
